A mixed list of measured activities; the numbers were collected in NIAID ChemDB.

Shared fields: growth or infection tests; agent: HIV-1; cells: PBMC; endpoint: EC50

ECn: concentration that inhibits the pathogen or its effect by n%. Two numbers with a dash give a range or band. Rows are shuffled and stem from different studies. Blank or dashed fields: not listed here.

structure	strain	read by	setting	value
NCC(N)=O	Clinical isolates	p24		23 µM
CC(C)(C)OC(=O)N1CCCCC1Cc1[nH]n(-c2nc3ccccc3[nH]2)c(=O)c1CCc1ccc(F)cc1	NL4-3	p24 / ELISA		≥1 µM
Cn1cc(C(=O)O)c(=O)c2cc(F)c(N3CC=C(c4ccccc4)CC3)c(C(F)(F)F)c21	IIIB	p24		0.027 µM
CC(=O)OCc1c(C)c2ccc3c(c2oc1=O)[C@@H](OC(=O)C12CCC(C)(C(=O)O1)C2(C)C)[C@@H](OC(=O)C12CCC(C)(C(=O)O1)C2(C)C)C(C)(C)O3	IIIB	p24		0.00012 µg/mL
CN1c2c(-c3ccccc3)nn(CC(=O)N/N=C/c3cccc(Cl)c3)c2-c2ccccc2S1(=O)=O	LAV-1	RT activity		>100 µM
COC(=O)[C@H](C)NP(=O)(OC[C@@H]1C=C[C@H](n2cc(C)c(=O)[nH]c2=O)O1)Oc1ccc(OC)cc1	IIIB	p24		0.033 µM
O=C(Nc1nc2ccc(C(F)(F)F)cc2s1)c1cnc(C(F)(F)F)s1	BaL	flow cytometry		0.248 µM
CN(C)CCSc1cccc(-c2cc(-c3cccc(SCCN(C)C)c3)nc(SCCN(C)C)n2)c1	LAV-1	RT activity		6.2 µM
CC(=O)OCc1cc2ccc3c(c2oc1=O)[C@@H](OC(=O)[C@@]12CC[C@@](C)(C(=O)O1)C2(C)C)[C@@H](OC(=O)[C@@]12CC[C@@](C)(C(=O)O1)C2(C)C)C(C)(C)O3	IIIB	p24		0.00103 µg/mL
C=C1CN(S(=O)(=O)c2ccc(C)cc2)CCCN(Cc2ccccc2)CCCN(S(=O)(=O)c2ccc(C)cc2)C1	RF	cytopathic effect		1.9 µM
COc1cc(-c2ccc(N=Nc3ccc4c(S(=O)(=O)O)cc(S(=O)(=O)O)c(N)c4c3O)c(OC)c2)ccc1N=Nc1ccc2c(S(=O)(=O)O)cc(S(=O)(=O)O)c(N)c2c1O	BaL	cytopathic effect / XTT		1.8 µM
COc1cc2ccnc3c2c(c1OS(=O)(=O)c1ccccc1)N(C)C=C3				8.1 µM
COc1cc(O)c(CC=C(C)C)c(O)c1C(=O)/C=C/c1ccc(O)cc1	IIIB	p24		50.55 µM
CC1(C)Oc2ccc3cc(CO)c(=O)oc3c2[C@@H](OC(=O)C23CCC(C)(C(=O)O2)C3(C)C)[C@H]1OC(=O)C12CCC(C)(C(=O)O1)C2(C)C	IIIB	p24		0.000188 µg/mL
NC(=O)C[C@H](NC(=O)CNC1c2ccc3cc4c5c6c(cc7ccc8cc9cc1c1c9c9c8c7c6c9c6c1c2c3c56)C4)C(=O)O		p24		140 µM
CN1CCN(CCSc2nc(-c3ccc4ccccc4c3)c3ccccc3n2)CC1	LAV-1	RT activity		2.6 µM
CN1c2c(-c3ccccc3)nn(CC(=O)N/N=C/c3ccc([N+](=O)[O-])cc3)c2-c2ccccc2S1(=O)=O	LAV-1	RT activity		>100 µM
NNC(=O)CN1c2c(-c3ccccc3)n[nH]c2-c2ccccc2S1(=O)=O				>100 µM
COc1ccccc1N1CCN(c2c(F)cc3c(=O)c(C(=O)O)cn(C)c3c2CN(C)C)CC1	BaL	p24		~0.16 µM
O=C(CN1c2c(-c3ccccc3)n[nH]c2-c2ccccc2S1(=O)=O)N/N=C/c1c(Cl)cccc1Cl				2.7 µM
COc1cc2ccnc3c2c(c1OCCCCCCOc1c(OC)cc2ccnc4c2c1N(C)C=C4)N(C)C=C3				0.54 µM
NC(=NCCC[C@H](N)C(=O)O)NC1c2ccc3cc4c5c6c(cc7ccc8cc9cc1c1c9c9c8c7c6c9c6c1c2c3c56)C4		p24		230 µM
CN(C)CCSc1nccc(-c2ccc(-c3ccnc(SCCN(C)C)n3)s2)n1	LAV-1	RT activity		1.4 µM
Cc1cn([C@H]2C=C[C@@H](CO)O2)c(=O)[nH]c1=O	IIIB	RT activity		0.04 µM
CN1c2c(-c3ccccc3)nn(CC(=O)N/N=C/c3ccc(O)cc3O)c2-c2ccccc2S1(=O)=O	LAV-1	RT activity		3.3 µM
OCCN(CCO)c1nc(-c2cccs2)cc(-c2cccs2)n1	LAV-1	RT activity		4.5 µM
C=C(C)C12OCOC1C1C3OC3(CO)C(O)C3(O)C(=O)C(C)=CC3C1(O/C=C/C=C/CCC)C(C)C2OC(=O)c1ccccc1		fluorescence		0.03 µM
O=C(CN1c2c(-c3ccccc3)n[nH]c2-c2ccccc2S1(=O)=O)N/N=C/c1ccc([N+](=O)[O-])cc1				25.1 µM
CN1c2c(-c3ccccc3)nn(CC(=O)N/N=C/c3ccc(Cl)cc3)c2-c2ccccc2S1(=O)=O	LAV-1	RT activity		>100 µM
Cn1cc(NC(=O)Nc2cc(C(=O)Nc3cc(C(=O)Nc4cc(S(=O)(=O)O)c5cc(S(=O)(=O)O)cc(S(=O)(=O)O)c5c4)n(C)c3)n(C)c2)cc1C(=O)Nc1cc(C(=O)Nc2cc(S(=O)(=O)O)c3cc(S(=O)(=O)O)cc(S(=O)(=O)O)c3c2)n(C)c1	BaL	cytopathic effect / XTT		0.4 µM
Cc1nnc(C(=O)NC(C)(C)c2nc(C(=O)NCc3ccc(F)cc3)c(O)c(=O)n2C)o1	BaL	syncytia		0.001 µM
C[C@H](Cn1cnc2c(N)ncnc21)OCP(=O)(O)O	NLAD8	luciferase		0.005 µM
O=S(=O)([O-])OC[C@@H]1C[C@H](O)[C@@H](OS(=O)(=O)[O-])[C@H](O[C@H]2[C@H](O)[C@@H](O)[C@H](O[C@@H]3OC[C@@H](O[C@H]4[C@@H](OS(=O)(=O)[O-])[C@@H](OS(=O)(=O)[O-])[C@H](O)O[C@@H]4CO)[C@H](O)[C@H]3O)O[C@@H]2CO)O1	Clinical isolate	p24 / ELISA	clinical isolate, multidrug-resistant	1.61 µg/mL
C[C@H]1[C@H](O)[C@@H](C)/C=C/C=C/C=C/C=C/C=C/C=C/C=C/[C@H](O[C@@H]2O[C@H](C)[C@@H](O)[C@H](N)[C@@H]2O)C[C@@H]2O[C@](O)(C[C@@H](O)C[C@@H](O)CC[C@H](O)[C@@H](O)C[C@@H](O)CC(=O)O[C@H]1C)C[C@H](O)[C@H]2C(=O)O	92RW009 CLADE A X4/R5(SI)	p24 / RT activity		3.3 µM
CCN1C[C@H](C)n2c(c(O)c3c(=O)n(Cc4ccc(F)c(Cl)c4)nc(C(=O)NC)c32)C1=O	BaL	syncytia		0.0009 µM
CN(C)Cc1ccc(-c2cccc(-c3ccc(CN(C)C)cc3)n2)cc1	LAV-1	RT activity		1.6 µM
Cc1cn([C@H]2C[C@@H](CO)[C@H](O)[C@@H]2O)c(=O)[nH]c1=O	LAV			>100 µM
Cc1cc(=O)oc2c3c(c(C(Br)Br)cc12)OC(C)(C)[C@H](OC(=O)C12CCC(C)(C(=O)O1)C2(C)C)[C@@H]3OC(=O)C12CCC(C)(C(=O)O1)C2(C)C	IIIB	p24		0.0215 µg/mL
COc1ccc(/C=N/NC(=O)Cn2nc(-c3ccccc3)c3c2-c2ccccc2S(=O)(=O)N3C)c(OC)c1OC	LAV-1	RT activity		>100 µM
CC(=O)N1CCC(C(=O)N(CCCN2CCC(Cc3ccc(C(N)=O)cc3)CC2)c2ccc(C)c(Cl)c2)CC1	HHA Clinical isolates	p24		0.0006 µM
COc1ccc(/C=C/C(=O)O[C@H]2[C@H](OC3OC=C(C(=O)O)[C@H]4CC[C@](C)(O)[C@@H]34)O[C@H](CO)[C@@H](O)[C@@H]2O)cc1	SA	p24 / antigen / PCR		0.1 µg/mL
CCCN1C=Cc2nccc3cc(OC)c(OC)c1c23				4 µM
CCCc1cc(=O)oc2c3c(c4c(c12)OC(C)(C)C=C4)O[C@H](C)C[C@@H]3O	IIIB	p24		27.92 µM
CC[C@H](C)[C@H](NC(=O)[C@@H](C[C@H](O)[C@H](CC1CCCCC1)NC(=O)CC(C)(C)C)C(C)C)C(=O)NCc1ccccn1				0.1–1 µM
O=C(CN1c2c(-c3ccccc3)n[nH]c2-c2ccccc2S1(=O)=O)N/N=C/c1cccc([N+](=O)[O-])c1				3.3 µM
CN1c2c(-c3ccccc3)nn(CC(=O)N/N=C/c3ccc(Cl)cc3Cl)c2-c2ccccc2S1(=O)=O	LAV-1	RT activity		>100 µM
CC1(C)Oc2ccc3cc(C(Br)Br)c(=O)oc3c2[C@@H](OC(=O)C23CCC(C)(C(=O)O2)C3(C)C)[C@H]1OC(=O)C12CCC(C)(C(=O)O1)C2(C)C	IIIB	p24		0.000119 µg/mL
Cc1ccc(NC(=O)CN2CCN(Cc3nc(-c4ccc(F)cc4)no3)CC2)cc1	92UG024	RT activity		8.5 µM
COc1ccc(/C=N/NC(=O)CN2c3c(-c4ccccc4)n[nH]c3-c3ccccc3S2(=O)=O)cc1				42 µM
CN(C)CCNc1nc(-c2ccc(SCCN(C)C)cc2)cc(-c2cccs2)n1	LAV-1	RT activity		1.26 µM
O=c1c(CCc2ccc(F)cc2)c(C2CCC2)[nH]n1-c1nc2ccccc2[nH]1	NL4-3	p24 / ELISA		<0.01 µM
Cc1cn([C@H]2C[C@H](N=[N+]=[N-])[C@@H](CO)O2)c(=O)[nH]c1=O	RW/92/016 (subtype A/A)	RT activity		0.00047 µM
COc1ccc(/C=N/NC(=O)Cn2nc(-c3ccccc3)c3c2-c2ccccc2S(=O)(=O)N3C)c(OC)c1	LAV-1	RT activity		99.8 µM
CN(C)CCNCc1ccc(-c2cccc(-c3ccc(CNCCN(C)C)cc3)n2)cc1	LAV-1	RT activity		3.7 µM
CN(C[C@@H](CCN1CCC2(CC1)CC(=O)c1ccccc12)c1cccc(Cl)c1)S(=O)(=O)c1ccccc1	YU2	RT activity		<1.5 µM
Nc1nc(=O)n([C@@H]2O[C@H](CO)C=C2F)cc1F	xxBRU	RT activity		<9.9 µM
CC(C)=CCOc1cc(NC(=S)c2ccsc2C)ccc1Cl	WEJO	p24		0.007 µM

Repeating the first 3 entries:

{"structure": "NCC(N)=O", "strain": "Clinical isolates", "read by": "p24", "value": "23 µM"}
{"structure": "CC(C)(C)OC(=O)N1CCCCC1Cc1[nH]n(-c2nc3ccccc3[nH]2)c(=O)c1CCc1ccc(F)cc1", "strain": "NL4-3", "read by": "p24 / ELISA", "value": "≥1 µM"}
{"structure": "Cn1cc(C(=O)O)c(=O)c2cc(F)c(N3CC=C(c4ccccc4)CC3)c(C(F)(F)F)c21", "strain": "IIIB", "read by": "p24", "value": "0.027 µM"}